The text below walks through data of patent US20170146519A1, “STING AGONISTS AND METHODS OF SELECTING STING AGONISTS” (priority 2015, published 2017).

Assay [1] deals with Chikungunya virus (CHIKV). It counts as cell-based.
The subject of assay [2] is Venezuelan Equine Encephalitis Virus (VEEV). It counts as cell-based.

B1: IFNβ: Human recombinant IFNβ obtained from PBL, control stimulus at 1000 U/mL (protein, UniProt P01574 22-187, looked up)
Interferon beta: MSYNLLGFLQRSSNFQCQKLLWQLNGRLEYCLKDRMNFDIPEEIKQLQQFQKEDAALTIYEMLQNIFAIFRQDSSSTGWNETIVENLLANVYHQINHLKTVLEEKLEKEDFTRGKLMSSLHLKRYYGRILHYLKAKEYSHCAWTIVRVEILRNFYFINRLTGYLRN
With B1, in assay [1], the “CHIKV replication in cells lacking IRF3” value is recorded as “strong anti-Alphaviral state can still be established”. Besides, in assay [1] (48 h), the “CHIKV replication in cells lacking IPS-1” value is reported as “diminishes replication of all three virus types by multiple logs”, the “CHIKV replication in cells lacking STAT1” value was “detectable yet significant” and the “CHIKV replication in cells lacking STING” value is “antiviral state can effectively be established”. Besides, the “VEEV replication in cells lacking IRF3” value in assay [2] is “strong anti-Alphaviral state can still be established”. Also, in assay [2] (24 h), the “VEEV replication in cells lacking IPS-1” value was “diminishes replication of all three virus types by multiple logs”, the “VEEV replication in cells lacking STAT1” value is “detectable yet significant” and the “VEEV replication in cells lacking STING” value is recorded as “antiviral state can effectively be established”.
